Anti-infective test results gathered from many reports (values: NIAID ChemDB through PubChem).

All rows: tests in culture; agent: Mycobacterium tuberculosis

Neighbouring rows are from separate reports. ECn is the concentration giving n% inhibition of infection, replication or growth. MIC bound: limit read from a one-dose screen. Blank or dashed fields: not listed here. MIC50, MIC90 and the like: level of inhibition, or share of isolates inhibited. Percent inhibition refers to the dose given; in toxicity tests it is the harm to the cells.

smiles	strain	cell line	read by	endpoint	tested at	value
CCCCC(CC)CN1CN(CC(CC)CCCC)CC(C)(NCCNCc2ccc(OC)c(OC)c2)C1	-	-	-	MIC	-	50 µM
COc1ccc(-c2ccc3cccc(C)c3n2)cc1	H37Rv	-	-	MIC	-	25 µg/mL
O=C1CCCN1CCCNCCNCC(c1ccccc1)c1ccccc1	-	-	-	MIC	-	25 µM
CC[C@H]1OC(=O)[C@H](C)[C@@H](O[C@H]2C[C@@](C)(OC)[C@@H](O)[C@H](C)O2)[C@H](C)[C@@H](O[C@@H]2O[C@H](C)C[C@H](N(C)C)[C@H]2O)[C@](C)(O)C[C@@H](C)C(=O)[C@H](C)[C@@H](O)[C@]1(C)O	ATCC 35823	-	-	MIC	-	>8 µg/mL
COc1ccc(-c2nc3ccc(N)cc3nc2-c2ccc(OC)cc2)cc1	H37Rv	-	-	MIC	-	>100 µg/mL
O=[N+]([O-])c1ccc(-c2csc(=[N+]3CCCCC3)s2)cc1	H37Rv	-	resazurin	inhibition	6.25 µg/mL	8%
C[C@@H]1CN(c2c(F)c(N)c3c(=O)c(C(=O)O)cn(C4CC4)c3c2F)C[C@H](C)N1	MDR	-	-	MIC90	-	1 µg/mL
Clc1ccccc1CNCCNC1CCCCCCC1	-	-	-	MIC	-	25 µM
CN[C@@H]1[C@H](O[C@H]2[C@H](O[C@H]3[C@H](O)[C@@H](O)[C@H](N=C(N)N)[C@@H](O)[C@@H]3N=C(N)N)O[C@@H](C)[C@]2(O)C=O)O[C@@H](CO)[C@H](O)[C@H]1O	A2B (amikacin-resistant)	-	-	MIC	-	4 µg/mL
N/C(=N\OC(=O)Nc1ccc(CSc2ccc(Cl)cc2)o1)c1ccccn1	H37Rv	-	BACTEC	MIC	-	≥12.5 µg/mL
CC(Cc1c[nH]c2ccccc12)NCCNCc1ccco1	-	-	-	MIC	-	50 µM
CO[C@H]1/C=C/O[C@@]2(C)Oc3c(C)c(O)c4c(O)c(c(/C=N/N5CCN(C)CC5)c(O)c4c3C2=O)NC(=O)/C(C)=C\C=C\[C@H](C)[C@H](O)[C@@H](C)[C@@H](O)[C@@H](C)[C@H](OC(C)=O)[C@@H]1C	TN659	-	-	MIC	-	8 µg/mL
COC1C[C@H](C)[C@@H](OC)C2=CC(=O)C=C(NC(=O)/C(C)=C/C=C\[C@H](C)C(OC(N)=O)/C(C)=C/[C@@H](C)[C@@H]1OC)C2=O	TAC-R	-	-	MIC	-	12.5 µg/mL
Fc1ccc(CCNCCNCCc2ccc(Cl)cc2Cl)cc1	-	-	-	MIC	-	25 µM
Cl.Nc1ccc(C(=O)NC(CCC(=O)O)C(=O)O)cc1	H37Rv	-	-	MIC	-	>100 µg/mL
O=C1CC(c2ccccc2)Oc2cc(I)ccc21	-	-	-	inhibition	12.5 µg/mL	20%
CN1CCN(CCSC(=O)N2c3ccccc3Sc3ccc(Cl)cc32)CC1	H37Rv	-	BACTEC	inhibition	12.5 µg/mL	67%
CO[C@H]1/C=C/O[C@@]2(C)Oc3c(C)c(O)c4c(=O)c(c5oc6cc(N7CCN(CC(C)C)CC7)cc(=O)c6nc5c4c3=C2O)NC(=O)/C(C)=C\C=C\[C@H](C)[C@H](O)[C@@H](C)[C@@H](O)[C@@H](C)[C@H](OC(C)=O)[C@@H]1C	2275 (rifampin-resistant)	-	-	MBC	-	0.2 µg/mL
CC1C=CC(=O)O1	H37Rv	-	-	MIC	-	>100 µg/mL
CCOC(=O)Nc1cc2c(c(N)n1)N=C(CN(C)c1ccc(OC)cc1)CN2	H37Rv	-	-	EC50	-	>12.5 µg/mL
FC(F)(F)c1cccc(N=Nc2cccc(C(F)(F)F)c2)c1	H37Rv	-	-	MIC	-	50 µg/mL
CC[C@@H](CO)NCCN[C@@H](CC)CO	MDR11	-	broth dilution / resazurin	MIC	-	8 µg/mL
NC(=O)NC(=O)C1C2C=CC(C2)C1C(=O)NC(N)=O	H37Rv	-	BACTEC	MIC bound	-	>12.5 µg/mL
CCOC(=O)Nc1cc(NC(c2ccccc2)c2ccccc2)c(N=Cc2ccc(Cl)cc2Cl)c(N)n1	H37Rv	-	-	EC50	-	>12.5 µg/mL
CCCCOC(OCCCC)C(C)NCCO	H37Rv	-	-	MIC	-	>100 µg/mL
COc1ccc(C2Oc3cc(F)ccc3C(=O)C2O)cc1	H37Rv	-	-	EC50	-	12.5 µg/mL
NC1CCN(c2c(F)cc3c(=O)c(C(=O)O)cn(C4CC4)c3c2Cl)C1	MDR	-	-	MIC90	-	2 µg/mL
C[C@H](NCCNCC(c1ccccc1)c1ccccc1)C1CCCCC1	-	-	-	MIC	-	25 µM
CC(CNC1CCCCCCC1)NCCC(c1ccccc1)c1ccccc1	-	-	-	MIC	-	12.5 µM
Nc1ccc2nc(-c3ccccc3Cl)c(-c3ccccc3Cl)nc2c1	H37Rv	-	-	MIC	-	>100 µg/mL
NNC(=O)c1ccc([N+](=O)[O-])o1	H37Rv	-	BACTEC	MIC bound	-	>12.5 µg/mL
O=C(O)/C(=C\c1ccccc1)c1ccccc1	H37Rv	-	-	MIC	-	50 µg/mL
COc1ccc([C@@H]2CC(=O)c3c(OC)cc(OC)c([C@H]4C(=O)c5c(OC)cc(OC)cc5O[C@@H]4c4ccc(OC)cc4)c3O2)cc1	H37Rv	-	-	EC50	-	<12.5 µg/mL
CCOC(=O)Nc1cc(NCc2ccccc2)c2[nH]cnc2n1	H37Rv	-	-	EC50	-	>12.5 µg/mL
COc1ccc2c(=O)c(-c3c(-c4ccccc4)oc4cc(OC)ccc4c3=O)c(-c3ccccc3)oc2c1	H37Rv	-	-	inhibition	12.5 µg/mL	0%
Nc1ccc2c(c1)S(=O)(=O)c1ccccc1-2	H37Rv	-	-	MIC	-	>100 µg/mL
CO[C@H]1/C=C/O[C@@]2(C)Oc3c(C)c(O)c4c(=O)c(c5oc6cc(N7CCN(C(C)C)CC7)cc(=O)c6nc5c4c3=C2O)NC(=O)/C(C)=C\C=C\[C@H](C)[C@H](O)[C@@H](C)[C@@H](O)[C@@H](C)[C@H](OC(C)=O)[C@@H]1C	2912 (rifampin-sensitive)	-	-	MBC	-	0.025 µg/mL
COc1cccc(Nc2nc(NS(=O)(=O)c3cc(C)c(Cl)cc3S)n[nH]2)c1	H37Rv	-	BACTEC	inhibition	12.5 µg/mL	0%
CCOC(=O)Nc1cc(N(C)CC(O)c2ccccc2)c(N)c(N)n1	H37Rv	-	-	inhibition	12.5 µg/mL	20%
CC1CN(c2cc3c(cc2F)c(=O)c(C(=O)O)cn3-c2ccc(F)cc2F)CCN1	DRUG-SUS	-	-	MBC90	-	4 µg/mL
CCn1c(O)c(C=Nc2ccccc2)s/c1=N\Nc1nc(-c2ccc([N+](=O)[O-])cc2)cs1	H37Rv	-	resazurin	MIC bound	-	>6.25 µg/mL
COc1ccccc1/C=C/C(=O)c1ccccc1O	H37Rv	-	-	inhibition	12.5 µg/mL	39%
COC(=O)C1(O)C(=O)NC2=C1C(=O)c1ccccc1C2=O	H37Rv	-	resazurin	inhibition	6.25 µg/mL	14%
OCc1ccccc1Sc1ccccc1CNCCNCc1cccc(F)c1	-	-	-	MIC	-	25 µM
O=C(O)C(=O)Cc1ccc([N+](=O)[O-])cc1	H37Rv	-	-	MIC	-	>100 µg/mL
CCOC(=O)c1c(NC(=O)CCl)ssc1=S	H37Rv	-	BACTEC	MIC	-	12.5 µg/mL
FC(F)(F)c1ccc(CNCCNCCN2CCOCC2)cc1	-	-	-	MIC	-	50 µM
CC(C)=CCC/C(C)=C/CNCCNCCC(c1ccccc1)c1ccccc1	-	-	-	MIC	-	50 µM
NC(=O)CS	H37Rv	-	-	MIC	-	25 µg/mL
CCCCC(CC)CN1CN(CC(CC)CCCC)CC(C)(NCCNC2CCCCC2)C1	-	-	-	MIC	-	12.5 µM
CC(=O)Nc1ccc(N)cc1	H37Rv	-	-	MIC	-	>100 µg/mL
O=C1c2cscc2C(=O)c2cscc21	H37Rv	-	resazurin	MIC bound	-	<6.25 µg/mL
CC(C)c1ccc2c(c1)CC[C@H]1[C@](C)(CNCCNCCc3ccc(O)cc3)CCC[C@]21C	-	-	-	MIC	-	25 µM
N#CC1(c2nc3ccccc3o2)C(=O)C(=O)N(c2ccc(Cl)c(Cl)c2)C(=O)C1=O	H37Rv	-	resazurin	MIC bound	-	<6.25 µg/mL
Cl.Nc1ccc(O)c(CN2CCCCC2)c1	H37Rv	-	-	MIC	-	>100 µg/mL
Oc1ccc(Br)cc1-c1nc2cc(Cl)c(Cl)cc2nc1-c1cc(Br)ccc1O	H37Rv	-	resazurin	MIC	-	6.25 µg/mL
Nc1ccccc1Oc1ccccc1N	H37Rv	-	-	MIC	-	>100 µg/mL
Cc1cc(N(C)C)nc2cc(N(C)C)ccc12	H37Rv	-	BACTEC	inhibition	12.5 µg/mL	92%
Cc1cc(Cl)cc2sc(C(=O)[O-])c(N)c12.[Na+]	H37Rv	-	-	MIC	-	50 µg/mL
COc1ccc2c(c1)c(=O)c1c(NCCNCCO)ccc3c(=O)n(CCN(C)C)c(=O)n2c31.Cl	H37Rv	-	resazurin	MIC bound	-	>6.25 µg/mL
CCOC(=O)Nc1cc(NCC(=O)c2ccc(C(F)(F)F)cc2)c([N+](=O)[O-])c(N)n1	H37Rv	-	-	EC50	-	>12.5 µg/mL
NC(=O)N1CCCCC1	H37Rv	-	-	MIC	-	>100 µg/mL
CC(C)c1ccc2c(c1)CC[C@H]1[C@](C)(CNCCNC3CCc4ccccc43)CCC[C@]21C	-	-	-	MIC	-	25 µM
Cc1cc2c(C)c3cc(C)c(N)cc3nc2cc1N	H37Rv	VERO	BACTEC	MIC	-	3.13 µg/mL
Cc1cc(C)cc(OCC(=O)O)c1	H37Rv	-	-	MIC	-	>100 µg/mL
COc1ccc(CNCCN[C@@H](C)C2CCCCC2)cc1OC	-	-	-	MIC	-	50 µM
CC(C)=CCC/C(C)=C/CNCCN(Cc1ccccc1)Cc1ccccc1	-	-	-	MIC	-	25 µM
Nc1nc(N)c2c(ccc3c2ccn3Cc2cccc([N+](=O)[O-])c2)n1	H37Rv	-	resazurin	inhibition	6.25 µg/mL	100%
CCCCc1ccc2ccccc2n1	H37Rv	-	-	MIC	-	>100 µg/mL
COc1cc2c3c(c1O)C1(C=CC(=O)C=C1)C[C@@H]3N(C)CC2	H37Rv	-	BACTEC	inhibition	12.8 µg/mL	5%
CCOC(=O)Nc1cc(NC(c2ccccc2)c2ccccc2)c2ncc(=O)[nH]c2n1	H37Rv	-	-	EC50	-	>12.5 µg/mL
CC(C)N1CN(C(C(=O)NC2C(=O)N3C2SC(C)(C)C3C(=O)O)c2ccc(O)cc2)CSC1=S	H37Rv	-	BACTEC	MIC bound	-	>12.5 µg/mL
c1cc[n+](CCCCC[n+]2ccccc2)cc1	H37Rv	-	-	MIC	-	100 µg/mL
COc1ccc2c(c1)[n+]([O-])c(/C(C)=N/NC(=O)c1ccccc1O)c(C)[n+]2[O-]	H37Rv	-	BACTEC	inhibition	12.5 µg/mL	99%
C=CCOc1ccccc1	H37Rv	-	-	MIC	-	>100 µg/mL

A second listing of 9 rows from above:

smiles | strain | cell line | read by | endpoint | tested at | value
NC(=O)N1CCCCC1 | H37Rv | - | - | MIC | - | >100 µg/mL
CC[C@@H](CO)NCCN[C@@H](CC)CO | MDR11 | - | broth dilution / resazurin | MIC | - | 8 µg/mL
COC(=O)C1(O)C(=O)NC2=C1C(=O)c1ccccc1C2=O | H37Rv | - | resazurin | inhibition | 6.25 µg/mL | 14%
CC(C)=CCC/C(C)=C/CNCCN(Cc1ccccc1)Cc1ccccc1 | - | - | - | MIC | - | 25 µM
Nc1ccccc1Oc1ccccc1N | H37Rv | - | - | MIC | - | >100 µg/mL
O=C1CC(c2ccccc2)Oc2cc(I)ccc21 | - | - | - | inhibition | 12.5 µg/mL | 20%
Nc1ccc2c(c1)S(=O)(=O)c1ccccc1-2 | H37Rv | - | - | MIC | - | >100 µg/mL
CO[C@H]1/C=C/O[C@@]2(C)Oc3c(C)c(O)c4c(O)c(c(/C=N/N5CCN(C)CC5)c(O)c4c3C2=O)NC(=O)/C(C)=C\C=C\[C@H](C)[C@H](O)[C@@H](C)[C@@H](O)[C@@H](C)[C@H](OC(C)=O)[C@@H]1C | TN659 | - | - | MIC | - | 8 µg/mL
N/C(=N\OC(=O)Nc1ccc(CSc2ccc(Cl)cc2)o1)c1ccccn1 | H37Rv | - | BACTEC | MIC | - | ≥12.5 µg/mL